Test results taken from paper PMC4718804 (eLife, 2015).

Target: NPC1(P691S) (Homo sapiens, UniProt O15118, P691S)
Assay: UV crosslinking of U-X to transfected NPC1(P691S) in 10-3 cells
Details: 10-3 cells expressing the P691S mutant, 0.3 µM U-X

Structure (SMILES): C#CCOc1ccc(C(=O)c2ccc(C(=O)OCCN(CC)CCOC3CCC4(C)C(=CCC5C6CCC(=O)C6(C)CCC54)C3)cc2)cc1 (stereo not shown) [U-X]
- fluorescent NPC1 after UV crosslinking of U-X: not detected
